Anti-infective test results gathered from many reports (values: NIAID ChemDB through PubChem).

All rows: enzyme or target tests; species: HIV-1; target: Integrase; read-out: IC50

ICn: concentration for n% inhibition. Conditions beyond the fields shown may differ between rows. Blank or dashed fields: not listed here.

compound	strain or isolate	mutations	method	conditions	value
O=C(NC(=O)c1cn(CCN2CCNCC2)c(=O)[nH]c1=O)OCc1ccccc1	-	-	3′ processing	Mg2+	>200 µM
O=[N+]([O-])c1cc(Cl)ccc1S(=O)(=O)c1ccccc1	-	-	strand transfer	-	82.5 µM
CC(C)(C)c1cc(/C=C2/SC(=S)N(NC(=S)C(=O)Nc3ccc(O)cc3)C2=O)c(O)c(C(C)(C)C)c1	-	-	3′ processing	-	>100 µM
Nc1ccn([C@H]2C[C@H](O)[C@@H](COP(=O)(O)O[C@H]3C[C@H](n4cnc5c(N)ncnc54)O[C@@H]3COP(=O)(O)O)O2)c(=O)n1	-	-	3′ processing	-	6 µM
O=C1c2c(ccc(O)c2O)CN1Cc1ccc(F)cc1	-	-	strand transfer	-	10 µM
CN(C)[C@@H]1C(=O)C(C(=O)NCN2CCCC2)=C(O)[C@@]2(O)C(=O)C3=C(O)c4c(O)cccc4[C@@](C)(O)[C@H]3C[C@@H]12	RF	-	3′ processing	-	28 µM
Nc1cc(S(=O)(=O)c2ccc(O)c(N)c2)ccc1O	-	-	strand transfer	-	4.9 µM
COc1cc(C2CNCc3cc(OC)c(O)cc32)ccc1O	HXB2	-	strand transfer / radiometric	-	>35 µM
O=C=Nc1cccc(S(=O)(=O)c2cccc(N=C=O)c2)c1	-	-	3′ processing	-	100 µM
Cc1ccnc(NS(=O)(=O)c2ccc(N=Nc3cc4ccccc4c(C(=O)O)c3O)cc2)n1	-	-	3′ processing	Mn2+	21 µM
CN1CCc2ccc([C@@H]3CC3c3ccc4cc(C(=N)N)ccc4c3)cc2C1c1cccnc1	-	-	strand transfer	-	63 µM
Cc1ccc(S(=O)(=O)n2cc(C(C(=O)O)C(=O)O)c3cc(NC(=O)c4ccc(F)cc4)ccc32)cc1	-	G140S	strand transfer / fluorescence	-	>25 µM
O=C(CCl)Nc1ccc(S(=O)(=O)c2ccc(NC(=O)CCl)cc2)cc1	-	-	strand transfer	-	46.5 µM
O=C(NCc1ccc(F)cc1)C1C(=O)N(O)C(=O)c2cc(Cl)ccc21	-	-	strand transfer	-	0.26 µM
O/N=C1\C(=C\c2ccc3c(c2)OCO3)CCCC1C(NO)c1ccc2c(c1)OCO2	RF	-	3′ processing	-	>200 µM
O=C(O)/C=C/c1ccc(O)c(O)c1	LAI	-	disintegration	-	>50 µg/mL
O=c1[nH]cc(N=Nc2ccc(S(=O)(=O)Nc3ccccn3)cc2)cc1O	-	-	3′ processing	Mg2+	269 µM
CC(C)=CCC[C@H](C)[C@H]1CC[C@]2(C)C[C@H]3[C@@H](C(=O)C[C@@]3(C)O)C(C=O)=C[C@@H]12	-	-	absorbance	-	33 µM
CC(=O)Oc1ccc(/C=C/C(=O)O[C@@H](C(=O)O)[C@@H](OC(=O)/C=C/c2ccc(OC(C)=O)c(OC(C)=O)c2)C(=O)O)cc1OC(C)=O	IIIB	-	disintegration	-	3.3 µM
O=C1OC[C@@H]2[C@@H](c3ccc(O)c(O)c3)c3cc(O)c(O)cc3C[C@H]12	HXB2	-	strand transfer / radiometric	-	0.5 µM
Nc1ccn(C2CC(OP(=O)(O)OCC3OC(n4cnc5c(N)ncnc54)CC3O)C(COP(=O)(O)O)O2)c(=O)n1	-	-	3′ processing	-	105 µM
Cc1cc(O)c2c(c1)C(=O)C1(C)C(=C2O)C(=O)[C@H]2[C@H](O)[C@H]3[C@@H](O)[C@@H]1C(=O)C1=C(O)c4c(O)cc(C)cc4C(=O)C132	-	-	strand transfer	-	25 µM
Nc1ccn(C2CC(O)C(COP(=O)(O)OC3CC(n4cnc5c(N)ncnc54)OC3COP(=O)(O)OC3CC(n4ccc(N)nc4=O)OC3COP(=O)(O)O)O2)c(=O)n1	-	-	3′ processing	-	93 µM
O=C(O)COc1ccc(S(=O)(=O)c2ccc(OCC(=O)O)c([N+](=O)[O-])c2)cc1[N+](=O)[O-]	-	-	3′ processing	-	70 µM
COc1ccc2c(c1)C(=O)N(O)C(=O)C2C(=O)NCc1ccc(F)cc1	-	-	strand transfer	-	0.62 µM
O=C(/C=C/c1ccc(O)c(O)c1)O[C@@H]1CC(O)(C(=O)O)C[C@@H](OC(=O)/C=C/c2ccc(O)c(O)c2)C1O	LAI	-	disintegration	-	0.66 ± 0.24 µg/mL
O=C(Nc1ccc(F)cc1)c1c(O)n(O)c(=O)c2cc([N+](=O)[O-])ccc12	-	-	strand transfer	-	0.01 µM
O=S(=O)(O)c1cc(O)c(N=NC2S(=O)(=O)OCCOS2(=O)=O)c2ccccc12	-	-	3′ processing	Mn2+	>200 µM
Nc1nc2ccc(N(Cc3cccc(Oc4ccccc4)c3)Cc3cccc(Oc4ccccc4)c3)cc2[nH]1	-	-	strand transfer	-	4.9 µM
CCCCCCCCCCCCNC(=O)C1C(=O)N(O)C(=O)c2ccccc21	-	-	strand transfer	-	20.73 µM
CN1CCc2ccc([C@@H]3CC3c3ccc4cc(C(=N)N)ccc4c3)cc2C1c1ccccc1	-	-	strand transfer	-	41 µM
COc1cc(O)c(C(=O)O)c(-c2cc(O)c(O)cc2C)c1	-	-	absorbance	-	19 µM
Cc1cn(C2CC(O)C(COP(=O)(O)OC3CC(n4cnc5c(N)ncnc54)OC3COP(=O)(O)OC3CC(n4ccc(N)nc4=O)OC3COP(=O)(O)O)O2)c(=O)[nH]c1=O	-	-	3′ processing	-	>100 µM
CC(C)OC(=O)C(=O)CC(=O)c1cccn1Cc1ccc(F)cc1	-	-	binding	-	0.32 µM
COc1cc(/C=C/C(=O)CC(=O)/C=C/c2ccc(O)c(OC)c2)ccc1O	-	-	strand transfer	-	40 µM
Nc1ccc(S(=O)(=O)c2ccc(N)c([N+](=O)[O-])c2)cc1[N+](=O)[O-]	-	-	strand transfer	-	100 µM
O=c1cc(O)cc(/C=C/c2ccc(O)c(O)c2)o1	-	-	strand transfer	-	24 µM
Oc1cc2c(cc1O)C1c3ccc(O)c(O)c3OCC1(O)C2	HXB2	-	strand transfer / radiometric	-	0.5 µM
CCOC(=O)C(=O)C(=O)c1cccn1Cc1ccc(F)cc1	-	-	binding	-	3.59 µM
O=C(O)C1(O)C[C@@H](O)C(O)[C@H](O)C1	-	-	disintegration	-	>50 µg/mL
CC1(C)OC(=O)/C(=C/C(=O)c2cn(Cc3ccc(F)cc3)c3ccc(Br)cc23)O1	-	G140S	strand transfer / fluorescence	-	11.4 µM
N=C(N)c1ccc2cc(C#Cc3ccc4c(c3)CCNC4)ccc2c1	-	-	strand transfer	-	45 µM
Cc1cn(C2CC(O)C(COP(=O)(O)OC3CC(n4ccc(N)nc4=O)OC3COP(=O)(O)O)O2)c(=O)[nH]c1=O	-	-	3′ processing	-	8 µM
CCCCOC(=O)C(=O)CC(=O)c1cccn1Cc1ccc(F)cc1	-	-	binding	-	0.24 µM
CN(C)[C@@H]1C(=O)C(C(N)=O)=C(O)[C@@]2(O)C(=O)C3=C(O)c4c(O)cccc4[C@@](C)(O)[C@H]3C[C@@H]12	RF	-	3′ processing	-	204 µM
O=C(O)C(=O)/C=C(\O)c1cn(Cc2cc(F)ccc2F)c2ccc(Br)cc12	-	-	strand transfer / fluorescence	-	10.6 µM
O=C(OCC1OCOC(COC(=O)c2ccccc2)C(O)C1O)c1ccccc1	-	-	3′ processing	Mg2+	>200 µM
N=C(N)c1ccc2cc(C#Cc3ccc(CN)cc3)ccc2c1	-	-	strand transfer	-	300 µM
COC(O)/C=C/c1ccc2c(c1)c(C(=O)/C=C1\OC(C)(C)OC1=O)cn2Cc1ccc(F)cc1	-	Y143R	strand transfer / fluorescence	-	16.5 µM
NC(N)=NC(N)=Nc1ccc(S(=O)(=O)c2ccc(N=C(N)N=C(N)N)cc2)cc1	-	-	strand transfer	-	>100 µM
O=C(O)C(C(=O)O)c1c[nH]c2ccc([N+](=O)[O-])cc12	-	-	strand transfer / fluorescence	-	24.5 µM
O=C1c2c(ccc(O)c2O)CN1Cc1ccc(F)c(Cl)c1	-	-	3′ processing	-	13 µM
COC(=O)C(=O)OC1(C(=O)O)C[C@@H](OC(=O)/C=C/c2ccc(O)c(O)c2)C(O)[C@H](OC(=O)/C=C/c2ccc(O)c(O)c2)C1	-	-	strand transfer	-	0.26 µg/mL
O=C1OC[C@H]2[C@H](c3ccc(O)c(O)c3)c3cc(O)c(O)cc3C[C@H]12	HXB2	-	strand transfer / gel	-	0.5 µM
O=[N+]([O-])c1cc(S(=O)(=O)c2ccc(F)c([N+](=O)[O-])c2)ccc1F	-	-	strand transfer	-	59 µM
CC(O)/C=C/c1ccc2c(c1)c(C(=O)/C=C1\OC(C)(C)OC1=O)cn2Cc1ccc(F)cc1	-	-	strand transfer / fluorescence	-	11.6 µM
CN(C)[C@@H]1C(=O)C(C(=O)NCNc2nc3n[nH]nc3c(=O)[nH]2)=C(O)[C@@]2(O)C(=O)C3=C(O)c4c(O)cccc4[C@@](C)(O)[C@H]3C[C@@H]12	RF	-	3′ processing	-	1.6 µM